Compound potency records, mixed from different reports. Data source: NIAID ChemDB in PubChem.

Common to all: tests in culture; agent: Mycobacterium tuberculosis

MIC bound: limit read from a one-dose screen. ECn is the concentration giving n% inhibition of infection, replication or growth. An empty or dashed field is not shown. Neighbouring rows are from separate reports. Two numbers with a dash give a range or band. A number after MIC or MFC names an inhibition level or a share of isolates. Percent inhibition refers to the dose given; in toxicity tests it is the harm to the cells.

SMILES	tested at	method	measure	strain	mutations	conditions	value
COc1ccc2cc1-c1cc(ccc1O)C[C@H]1c3cc4c(cc3CCN1C)Oc1c(OC)cc3c(c1O4)[C@H](C2)N(C)CC3	-	-	MIC	RMP-R	-	-	3.1 µg/mL
NNC(=O)c1ccncc1	-	resazurin	MBC	H37Rv	-	-	>60 µg/mL
O=C(NCOC(c1ccccc1)c1ccccc1)c1cccnc1	-	BACTEC	MIC	H37Rv	-	-	≥12.5 µg/mL
C[C@@H]1CN(c2c(F)c(N)c3c(=O)c(C(=O)O)cn(C4CC4)c3c2F)C[C@H](C)N1	-	-	MIC90	18 strains	-	-	0.5 µg/mL
COC(=O)c1sc(=O)n(-c2ccccc2)c1SCc1ccccc1	-	BACTEC	MIC bound	H37Rv	-	-	>12.5 µg/mL
COc1c(N2CCNC(C)C2)c(F)cc2c(=O)c(C(=O)O)cn(C3CC3)c12	-	agar	MIC	MDR-TB	-	-	8.34 µM
CN1CCN(c2cccc(NCc3ccc(-c4ccccc4)cc3)c2)CC1	-	-	MIC	103471	-	-	8 µg/mL
CNc1cc(F)cc2cc3[nH]c(-c4ccc(C(=O)O)cc4CN(C)C4CCCCC4)cc3nc12	-	visual reading / absorbance	MBC	H37Rv	-	-	8 µg/mL
CO[C@H]1/C=C/O[C@@]2(C)Oc3c(C)c(O)c4c(O)c(c(/C=N/N5CCN(C)CC5)c(O)c4c3C2=O)NC(=O)/C(C)=C\C=C\[C@H](C)[C@H](O)[C@@H](C)[C@@H](O)[C@@H](C)[C@H](OC(C)=O)[C@@H]1C	-	resazurin	MIC	3426	-	-	30 µg/mL
CCCCCCCCCCCCSc1ccnc(C(N)=S)c1	-	-	MIC	H37Rv	-	-	60 µM
NC(=O)c1ccc(CN(C2CC2)S(=O)(=O)c2ccccc2F)cc1	-	resazurin / fluorescence	MIC	Clinical isolate	Isoniazid-resistant	-	5 µM
CCCCCCCCSc1ccnc(C(N)=S)c1	-	-	MIC	H37Rv	-	-	15 µM
COc1cc(CCCCC(=O)CCc2ccc(OC)c(Br)c2)ccc1O	-	broth dilution	MIC	H37Rv	-	-	>200 µg/mL
C=C(C)/C=C/[C@]12C[C@H](C)[C@H]3CC[C@](C)(NC)[C@@H](CC[C@H]1C)[C@@H]32	32 µg/mL	-	inhibition	H37Rv	-	-	100%
Cc1cc(=O)oc2cc(O)c(O)cc12	-	-	MIC	H37Rv	-	-	10 µg/mL
Cc1ccsc1C(=S)Nc1ccc(Cl)c(/C=N/OC(C)C)c1	12.5 µg/mL	BACTEC	inhibition	H37Rv	-	-	98%
CO[C@H]1/C=C/O[C@@]2(C)Oc3c(C)c(O)c4c(O)c(c(/C=N/N5CCN(C)CC5)c(O)c4c3C2=O)NC(=O)/C(C)=C\C=C\[C@H](C)[C@H](O)[C@@H](C)[C@@H](O)[C@@H](C)[C@H](OC(C)=O)[C@@H]1C	-	resazurin	MIC	H37Ra	-	-	0.1 µg/mL
O=C(O)CN1CC(=O)N(c2ccccc2)C1=S	-	BACTEC	MIC bound	H37Rv	-	-	>12.5 µg/mL
O=C(Oc1ccc(Cl)cc1C(=O)Nc1cccc(C(F)(F)F)c1)c1cnccn1	-	-	MIC	H37Rv 331/88	-	21 d	2 µM
NCC(O)c1ccc(O)c(O)c1	-	-	MIC	H37Rv	-	-	10 µg/mL
CCN(CC)C(=S)SCCOCCSC(=S)N(CC)CC	128 µg/mL	BACTEC	inhibition	H37Rv	-	-	90%
Cc1ccc(CSc2ncn[nH]2)cc1	-	-	MIC	My 331/88	-	-	1000 µM
COc1ccc(CCCCC(=O)CCc2ccc(OC)c(Br)c2)cc1O	-	broth dilution	MIC	H37Rv	-	-	>200 µg/mL
CCCCSc1ccnc(C(N)=S)c1	-	-	MIC	H37Rv	-	-	30 µM
NCc1ccccc1CC(=O)N[C@@H]1C(=O)N2C(C(=O)O)=C(CSc3nnnn3CC(=O)O)CS[C@H]12	100 µg/mL	-	inhibition	-	-	-	6%
Cn1cnnc1SCc1ccc(C#N)cc1	-	-	MIC	My 331/88	-	-	1000 µM
Cc1cc2c(cc1C)[n+]([O-])c(-c1nc3ccccc3s1)c(N)[n+]2[O-]	-	-	MIC	KM-R	-	-	12.5 µg/mL
CCCC/C=C(/C=N/NC(=O)c1ccncc1)CCC	-	-	MIC90	H37Rv	-	-	0.5 µg/mL
CO[C@@]1(NC(=O)Cc2cccs2)C(=O)N2C(C(=O)O)=C(COC(N)=O)CS[C@@H]21	100 µg/mL	-	inhibition	-	-	-	97%
Fc1ccc(CSc2ncn[nH]2)cc1F	-	-	MIC	My 331/88	-	-	1000 µM
CC[C@@H]1C(=O)OC[C@@H]1Cc1cncn1C	-	-	MIC	H37Rv	-	-	>100 µg/mL
Nc1ccc(S(=O)(=O)c2ccc(N)cc2)cc1	16 µg/mL	-	inhibition	-	-	-	0%
CCS	-	-	MIC	H37Rv	-	-	0.1 µg/mL
CO/N=C1/C(=O)N(CCOCCOCCOCCn2c(O)c(N=O)c3ccccc32)c2ccc(C)cc21	-	visual reading	MIC	H37Rv	-	-	256 µg/mL
c1ccc(-c2ccc(CNc3ccccc3N3CCOCC3)cc2)cc1	-	-	MIC	103471	-	-	>16 µg/mL
O=C(Oc1cc(Cl)ccc1C(=O)Nc1ccc(C(F)(F)F)cc1)c1cnccn1	-	-	MIC	H37Rv 331/88	-	21 d	1 µM
COc1ccc(CCCCC(=O)/C=C/c2ccc(Br)c(OC)c2)cc1O	-	broth dilution	MIC	H37Rv	-	-	>200 µg/mL
CC(C)(C)Sc1ccnc(C(N)=S)c1	-	-	MIC	H37Rv	-	-	30 µM
CCCCCCCCCCCCCCCCCC(=O)OCC(COC1OC(CS(=O)(=O)[O-])C(O)C(O)C1O)OC(=O)CCCCCCCCCCCCCCCCC.[Na+]	12.5 µg/mL	BACTEC	inhibition	H37Rv	-	-	0%
C/C(=N\NC(=O)c1ccncc1)c1ccccc1	-	-	MIC90	H37Rv	-	-	<6.25 µg/mL
CCCCCCCCCCCCCCCC(=O)OCCNC(=O)c1ccccc1SSc1ccccc1C(=O)NCCOC(=O)CCCCCCCCCCCCCCC	-	-	MIC	H37Rv	-	-	50 µg/mL
CO[C@H]1/C=C/O[C@@]2(C)Oc3c(C)c(O)c4c(O)c(c(/C=N/N=C/N5CCCCC5)c(O)c4c3C2=O)NC(=O)/C(C)=C\C=C\[C@H](C)[C@H](O)[C@@H](C)[C@@H](O)[C@@H](C)[C@H](OC(C)=O)[C@@H]1C	-	-	MIC	H37Rv	-	-	0.01 µg/mL
C[C@]1(COc2ccc(N3CCC(Oc4ccc(OC(F)(F)F)cc4)CC3)cc2)Cn2cc([N+](=O)[O-])nc2O1	-	-	MIC	ATCC 35812 (Kurono)	-	-	0.012 µg/mL
CN(c1ccccc1)c1cc2nc3ccccc3nc2cc1O	-	-	MIC	H37Rv	-	-	12.5 µg/mL
Cc1cc(N/N=C/c2ccccc2O)c2cccc(C)c2n1	-	-	MIC	H37Rv	-	-	10 µg/mL
CCO/N=C1/C(=O)N(CCOCCOCCOCCN2C(=O)C(=O)c3ccccc32)c2ccc(C)cc21	-	visual reading	MIC	-	MDR	-	256 µg/mL
O=C1CCCCc2ccc(O)c(c2)Oc2cc(ccc2O)CC1	-	broth dilution	MIC	H37Rv	-	-	200 µg/mL
CCOC(=O)c1cc(C(=O)c2ccc(F)cc2)n2ccc(C(=O)OC(C)C)cc12	-	resazurin	MIC	-	XDR-MTB	-	32 µg/mL
Cc1ccc(NCCN(C)CC(C)O)c2c(=O)c3ccccc3sc12	-	BACTEC	MIC bound	H37Rv	-	-	≤12.5 µg/mL
Clc1ccc(CNc2cccc(-n3ccnc3)c2)cc1	-	-	MIC	103471	-	-	4 µg/mL
CCCCN(C)N=Nc1c(C(N)=O)n[nH]c1C	-	BACTEC	MIC bound	H37Rv	-	-	>12.5 µg/mL
COc1cccc2c(N/N=C/c3ccccc3O)cc(C)nc12	-	-	MIC	H37Rv	-	-	10 µg/mL
O=C(N/N=C/c1cccc([N+](=O)[O-])c1)c1ccncc1	-	-	MIC90	Erdman	-	-	0.125 µg/mL
CCCCCCOc1ccc2cc1Oc1cc(ccc1OC)CCCCC(=O)CC2	-	broth dilution	MIC	H37Rv	-	-	>200 µg/mL
CCSc1ccnc(C(N)=S)c1	-	-	MIC	H37Rv	-	-	60 µM
CC(=O)c1ccc(O)c(-c2csc(N/N=C(\C)c3ccncc3)n2)c1	-	resazurin	EC50	H37Rv (ATCC 27294)	-	-	>100 µg/mL
CCC(C)Sc1ccnc(C(N)=S)c1	-	-	MIC	H37Rv	-	-	60 µM
NNC(=O)[C@H](O)[C@@H](O)[C@@H](O)[C@H](O)CO	6.25 µg/mL	resazurin	inhibition	H37Rv	-	-	-4%
NNC(=O)c1ccncc1	-	-	MIC	Isolate UT2204 (katG L91R mutation)	-	-	2 µg/mL
CC12CCC3=C4CCC(=O)C=C4CCC3C1CCC(=O)O2	12.5 µg/mL	BACTEC	inhibition	H37Rv	-	-	0%
CC(=O)OCC1=C(C(=O)O)N2C(=O)[C@@H](NC(=O)Cc3cccs3)[C@H]2SC1	100 µg/mL	-	inhibition	-	-	-	0%
CC(=O)c1ccc(O)c(-c2csc(N/N=C(\C)c3cccnc3)n2)c1	-	resazurin	EC90	H37Rv (ATCC 27294)	-	-	>100 µg/mL
c1cncc(-c2ncc(-c3ccc4c(c3)OCO4)o2)c1	-	-	MIC	H37Rv	-	-	25 µg/mL
O=C1C(=O)N(C2CCCCC2)C2C(=O)OCC12	12.5 µg/mL	BACTEC	inhibition	H37Rv	-	-	-9%
CO/N=C1/C(=O)N(CCOCCOCCOCCN2C(=O)C(=O)c3cc(C)ccc32)c2ccccc21	-	visual reading	MIC	H37Rv	-	-	128 µg/mL
Clc1ccc(CNc2ccccc2N2CCSCC2)cc1	-	-	MIC	103471	-	-	>16 µg/mL
CC(C)=CC[C@H](O)C1=CC(=O)c2c(O)ccc(O)c2C1=O	-	BACTEC	MIC bound	H37Rv	-	-	≤12.8 µg/mL
CO/N=C1/C(=O)N(CCOCCOCCOCCN2C(=O)C(=O)c3ccccc32)c2ccc(C)cc21	-	visual reading	MIC	H37Rv	-	-	128 µg/mL
CCCCn1c(=O)c2c(ncn2C)n(C)c1=O	-	BACTEC	MIC bound	H37Rv	-	-	>12.5 µg/mL
CCO/N=C1\C(=O)N(CCOCCOCCOCCN2C(=O)/C(=N/OC)c3cc(F)ccc32)c2ccc(F)cc21	-	visual reading	MIC	H37Rv	-	-	64 µg/mL
O=C(Oc1ccc(Br)cc1C(=O)Nc1ccc(C(F)(F)F)cc1)c1cnccn1	-	-	MIC	multidrug resistant 9449/2006	-	21 d	0.5 µM
C[C@H]1ON2CCC[C@@H]2[C@@H]1C(=O)N1C2CC3CCC2(CS1(=O)=O)C3(C)C	-	BACTEC	MIC bound	H37Rv	-	-	>12.5 µg/mL
O=C(N/N=C/c1ccc(OCCCCn2cc(COc3ccccc3)nn2)cc1)c1ccncc1	-	-	MIC99	H37Rv	-	-	0.39–0.78 µM
CCOC(=O)Nc1nc(NCCCCN(CC)CC)c2c(n1)SC(c1ccccc1)C(c1ccccc1)=N2	-	-	EC50	H37Rv	-	-	>50 µM
COc1ccc2ccc(=O)oc2c1CC(=O)C(C)C	-	-	MIC	H37Rv	-	-	100 µg/mL
COc1ccc2cc1Oc1cc(ccc1OC)CCC(=O)CCCC2	-	broth dilution	MIC	H37Rv	-	-	>200 µg/mL
O=C(Oc1cc(Cl)ccc1C(=O)Nc1ccc(Cl)cc1)c1cnccn1	-	-	MIC	H37Rv 331/88	-	21 d	4 µM
S=C(S)Nc1cccc(Cl)c1	12.5 µg/mL	BACTEC	inhibition	H37Rv	-	-	82%
O=C(CSc1nnc(-c2cccc(NC(=S)NCCO)c2)o1)c1ccccc1	6.25 µg/mL	resazurin	inhibition	H37Rv	-	-	69%
COc1ccc(N=Cc2c(O)ccc3c2oc2cc(Cl)c(O)c(Cl)c23)cc1	12.5 µg/mL	BACTEC	inhibition	H37Rv	-	-	41%
CO[C@H]1/C=C/O[C@@]2(C)Oc3c(C)c(O)c4c(O)c(c(/C=N/N=C/[n+]5cccc6ccccc65)c(O)c4c3C2=O)NC(=O)/C(C)=C\C=C\[C@H](C)[C@H](O)[C@@H](C)[C@@H](O)[C@@H](C)[C@H](OC(C)=O)[C@@H]1C	-	-	MIC	H37Rv	-	-	0.02 µg/mL
CO/N=C1/C(=O)N(CCOCCOCCOCCn2c(O)c(N=O)c3cc(F)ccc32)c2ccc(F)cc21	-	visual reading	MIC	-	MDR	-	256 µg/mL
COc1cc2ccc1Oc1cc(ccc1OC)CCC(=O)CCCC2	-	broth dilution	MIC	H37Rv	-	-	>200 µg/mL
CO[C@H]1[C@@H](O)c2coc3c2[C@](C)(c2ccc4c(c2C3=O)CCC4=O)[C@H]1O	12.5 µg/mL	BACTEC	inhibition	H37Rv	-	-	35%
NNC(=O)c1cccs1	-	visual reading	MIC99.9	INM27833	KatG S315T	-	>50 µg/mL
CCCCCSc1ccnc(C(N)=S)c1	-	-	MIC	H37Rv	-	-	15 µM
NC(=O)c1cnccn1	-	-	MIC	H37Rv 331/88	-	14 d	250–1000 µM